Results of unrelated studies side by side (data: NIAID ChemDB).

All rows: whole-cell or culture tests; species: Herpes simplex virus 2; measure: EC50

Lines come from different laboratories, so protocols vary. An empty or dashed field is not shown. ECn is the concentration giving n% inhibition of infection, replication or growth.

smiles	cell line	strain or isolate	result
O=c1c(O)c(-c2ccc(O)cc2)oc2cc(O)cc(O)c12	VERO		1 µg/mL
O=c1[nH]cnc2c1ncn2CCOCP(=O)(O)O	Primary rabbit kidney cells		>400 µg/mL
Nc1ccn(C[C@@H](CO)OCP(=O)(O)O)c(=O)n1	HEL	G	2 µM
Nc1ccn([C@@H]2C[C@@H](O)[C@H](CO)O2)c(=O)n1	HFF		>100 µM
Nc1ncnc2c1ncn2[C@@H]1C[C@@H](O)[C@H](CO)O1	HFF		>100 µM
O=c1c(O)c(-c2ccccc2)oc2cc(O)cc(O)c12	VERO		>15 µg/mL
Nc1ncnc2c1ncn2C[C@H]1COP(=O)(O)CO1	Primary rabbit kidney cells		4 µg/mL
O=c1[nH]c(=O)n(C2OC(CO)CC2F)cc1I	VERO		>100 µM
Nc1nc(N)c2ncn(CCOCP(=O)(O)O)c2n1	Primary rabbit kidney cells		0.7 µg/mL
Cc1cn([C@@H]2C[C@@H](O)[C@H](CO)O2)c(=O)[nH]c1=O	HFF		>100 µM
COc1cc(C[C@H]2C(=O)OC[C@@H]2Cc2cc(OC)c3c(c2)OCO3)cc(OC)c1OC	MRC-5	G	>50 µg/mL
CNc1ncnc2c1ncn2[C@H]1O[C@@H](CO)C[C@H]1F	VERO		>100 µM
O=c1ccn(-c2ccc(F)cc2F)c2cc(-c3ccncc3)ccc12	VERO	G	0.078 µg/mL
O=c1[nH]cnc2c1ncn2C[C@@H](CO)OCP(=O)(O)O	Primary rabbit kidney cells		>400 µg/mL
COc1cc(C[C@H]2C(=O)OC[C@@H]2Cc2ccc3c(c2)OCO3)cc(OC)c1OC	MRC-5	G	>11.9 µg/mL
Nc1ncnc2c1ncn2[C@@H]1C[C@@H](O)[C@H](CO)O1	HFF		>100 µM
C[C@H](Cn1cnc2c(NC3CC3)ncnc21)OCP(=O)(O)O			0.7 µg/mL
O=c1[nH]c(=O)n(C2CC(O)C(CO)O2)cc1/C=C/Br	HEL	G	250 µM
Nc1nc2c(ncn2[C@H]2O[C@@H](CO)C[C@H]2F)c(=O)[nH]1	VERO		>100 µM
COc1cc([C@@H]2c3cc4c(cc3[C@H](O)[C@H]3COC(=O)[C@H]23)OCO4)cc(OC)c1OC	MRC-5	G	0.01 µg/mL
C[C@H](N)C(=O)OCP(=O)(OC[C@H]1O[C@@H](n2ccc3c(N)ncnc32)C[C@@H]1O)Oc1ccccc1	HEL	G	>100 µM
Nc1ncnc2c1ncn2[C@@H]1O[C@@H](CO)CC1F	VERO		>100 µM
C[C@H](N)C(=O)OCP(=O)(OC[C@H]1O[C@@H](n2cnc3c(Cl)nccc32)C[C@@H]1O)Oc1ccccc1	HEL	G	>100 µM
Nc1nc(=O)n([C@H]2O[C@@H](CO)C[C@H]2F)cc1Cl	VERO		>100 µM
Nc1ncnc2c1ccn2[C@H]1C[C@H](O)[C@@H](COP(=O)(O)COC(=O)[C@@H](N)CC(=O)O)O1	HEL	G	>100 µM
O=c1[nH]cnc2c1ncn2[C@@H]1O[C@@H](CO)C[C@@H]1F	VERO		>100 µM

A second listing of 3 rows from above:

smiles	cell line	strain or isolate	result
Nc1ncnc2c1ncn2C[C@H]1COP(=O)(O)CO1	Primary rabbit kidney cells		4 µg/mL
C[C@H](Cn1cnc2c(NC3CC3)ncnc21)OCP(=O)(O)O			0.7 µg/mL
Nc1ccn([C@@H]2C[C@@H](O)[C@H](CO)O2)c(=O)n1	HFF		>100 µM